We go through twelve molecules from the supplement of paper PMC9931576.

To fix the notation:
B1: BD56-619 (protein)
chain 1: EVQLVESGGGSVQPGGSLRLSCAASGITVSSNYMSWVRQAPGKGLEWVSVIYPGGTTDYLDSVKGRFTISRHDSNLYLVLNSLRTEDTAVYFCARDLGPYGLDVWGQGTTVTVSS
chain 2: IQLTQSPSSLSASVGDRVTITCRASQGISSELAWYQQKPGQAPKLLIYDASTLQSGVPSRFSGSGSATEFTLTISSLQPDDFATYYCQEVNVYPPPFGGGTKVEIK
B2: DH1214 (protein)
chain 1: QVQLVQSGAEVKKPGSSVKVSCKASGGTFRSYAISWVRQAPGQGLEWMGRIIPMFGIANYAQKFQDRVTITADKSTSTAYMELSSLRSEDTAVYYCAENLQDDSGTLYSGGWGQGTLVTVSS
chain 2: QTVVTQEPSLTVSPGGTVTLTCASSTGAVTSGYYPNWFQQKPGQAPRALIYSTSNKHSWTPARFSGSLLGGKAALTLSGVQPEDEAEYYCLLYYGGASGWVFGGGTKLTVL
B3: BD56-631 (protein)
chain 1: QVQLVQSGAEVKKPGSSVKVSCKASGGTFSSYSINWVRQAPGQGLEWMGRTIPILGVANHAQKFQGRVTIIADKSTTTAYMELSSLKSEDTAVYYCAGGFGAGDYDAFDIWGQGTMVTVSS
chain 2: DIHMTQSPSSLSTSVGDRVTLTCRASQSISYFLNWYQQKPGKAPRLLIYAASNLQSGVPSRFSGSGSGTDFTLTISSLQPEDFATYYCQESYSTSFTFGPGTKVDIK
B4: BD56-634 (protein)
chain 1: QVQFVQSGAEVKKPGASVKLSCKASGYTFTQFAIHWVRQAPGQRLEWMGWINTANDNTKYSPRFLGRVTFTRDISATTVYMDLNSLTSEDTAVYYCARGLGYGELGPNFYFYYYMDVWGKGTTVTVSS
chain 2: QSVVTQSPSASGTPGQRVTISCSGTSSNIGSHYVYWYQQFPGTAPKLLIYSNSQRPSGVPDRFSGSKSGTSASLAISGLRSEDEADYYCAVWDGTLSGNWVFGGGTKLTVL
B5: BD56-639 (protein)
chain 1: QVQLVESGGGVVQPGRSLRLSCEASGFTFSSQAMHWVRQAPGKGLEWVAVIWSDGRSTHYADSVQGRFTISRDNSKNTLYLQMNRLRAEDTAVYYCARDASTATLLVSWFDPWGQGTLVTVSS
chain 2: DVQMTQSPSSLSASVGDRVTITCRASQSISTHLNWYQQKPGKAPTLLIYASSSLQSGVPSRFSGSGSGTDFTLTISSLQPEDFATYYCQQSHITPPWTFGQGTKVEIK
B6: BD56-648 (protein)
chain 1: QVQLQESGPGLVKPSQTLSLTCTVSSVSISSADYYWSWIRQPPGKGLEWIGNIYYSGSTFYNPSLKSRLTISLDTSKNKFSLKVNSVTVADTAVYYCARGGPRVFYDVLTGDQSYYYYGMDVWGQGTTVTVSS
chain 2: QSALTQPASVSGSPGQSITISCTGTSSDIGGYNSVSWYQQHPGKAPKLMIYDVTKRPSGVSIRFSGSKSGNTASLTISGLQAEDEAAYYCSSYISSSLWVFGGGTKLTVL
B7: BD56-651 (protein)
chain 1: QVQLVESGGGVVQPGRSLRLSCAASGFTFSSYGMHWVRQAPGKGLEWVAVISYDGINQYYADSVKGRFTISRDNSKNTLYLQMNSLRAEDTAVYYCANPPYYDFWRGYYVVGTHETAMDVWGQGTTVTVSS
chain 2: QSALTQPASVSGSPGQSITISCTGTSSDVGGYNFVSWYQQHPGKAPKLMIYDVSKRPSGVSNRFSGSKSGNTASLTISGLQAEDEADYYCSSYSSSSTWVFGGGTQLTVL
B8: BD56-623 (protein)
chain 1: QAQLVESGGGVVQPGRSLRLSCAASGFIFSSYAMHWVRQAPGKGLEWVAVISYDGSNKYYAKSVKGRFTISRDNFKNTLYLQMNSLRAEDTAVYDCARDMNAHPSVYNYGMDVWGQGTTVTVSS
chain 2: QSVLTQPPSVSGAPGQRVTISCTGSSSNIGAGYDVHWYQQLPGTAPKLLIYGDINRPSGVPDRFSGSNSGTSASLAITGLQAEDEADYYCQSYDSSLSGWVFGGGTKLTVL
B9: BD56-647 (protein)
chain 1: QVQLVQSGAEVKRPGSSVKVSCRASGGTFSSNPISWVRQAPGQGLEWVGGIIPIFDTTNYAQRFQGRVTITADESTGTAYMELSSLRSEDTAFYYCTRGNDYGDPLGYYYAMDVWGPGTTVTVSS
chain 2: QSVLTQPPSVSGAPGQRVTISCTGSSSNIGAGYDVHWYQQFPGTAPKLLIFGNANRPSGVPDRFSGSKSGTSASLAITGLQAEDEADYYCQSYDSSLSDVVFGGGTKLTVL
B10: BD56-633 (protein)
chain 1: QVQLVQSGAEVKKPGSSLKVSCKASGGTFSSYIIIWVRQGPGQGLEWMGEIIPILGTTNYAQKFQGRLTITADKSTSTAYMELSSLRSEDTAVYYCARVVGYSGSGSSYYFDSWGQGTLVTVSS
chain 2: QSVLTQPPSVSGAPGQRVTISCTGSNSNIGAGYDVHWYQQLPGTAPKLLIYVNNNRPSGVPDRFSGSKSGTSASLAITGLQAEDEADYYCQSYDSSLSGSVFGGGTKLTVL
B11: BD56-627 (protein)
chain 1: EVQLVESGGGLVQPGGSLRLSCAASGFTFSNFDMHWVRQPTGKGLEWVSTIGTAGDAYYPDSVKGRFTISRENGRNSLYLQMNSLRAEDTAVYYCARVAYVNSAFYSHLDSWGQGTLVTVSS
chain 2: DIQMTQSPSFLSASVGDRVTITCRASQSIGNYLNWYQQKPGKAPKLLIYAASSLQSGVPSRFSGSGSGTDFTLTISSLQLEDFATYYCQQSYITTGYTFGQGTKLGIK
B12: BD56-636 (protein)
chain 1: QVHLVESGGGVVQPGRSLRLSCAASGFTFSDYAMHWVRQAPGKGLGWVALVSFDGSITYYADSVKGRFTISRDNSKNTLYLQMNRLRAEDTAVYYCASSVSGWDGFDIWGQGTMVTVSS
chain 2: EIVLTQSPDFQSVTPKEKVTITCRASQSIGSSLHWYQQKPDQSPKLLIKYASQSISGVPSRFSGSGSGTDFTLTINSLEAEDAATYYCHQSSSFPFTFGPGTKVDIK

Human monoclonal antibodies against the spike receptor-binding domain (heavy:light variable regions). IC50 against pseudoviruses bearing the spike of naturally observed variants; lower = stronger; >10 µg/ml means not reached at the top dose. No active / inactive call. The stated detection limit is 0.0005 µg/ml; values near or below 0.001 µg/ml lie at the floor of the assay.

One experiment addresses SARS-CoV-2 Omicron BA.1 spike pseudovirus. Put plainly: pseudovirus neutralization IC50; higher = weaker neutralization. On the procedure:
(§1)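 Single-round VSV luciferase pseudovirus mixed with antibody dilutions for 1 h and put on Huh-7 cells for about a day; IC50 from the dose curve.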
For B1, the “pseudovirus neutralization IC50” value came to 0.001 µg/mL.

Take B2: the “pseudovirus neutralization IC50” value is greater than 10 µg/mL.

Take B3: the “pseudovirus neutralization IC50” value was determined as 0.958 µg/mL.

Regarding B4, the “pseudovirus neutralization IC50” value stood at 0.0156 µg/mL.

On to B5, for which the “pseudovirus neutralization IC50” value was greater than 10 µg/mL.

Take B6: the “pseudovirus neutralization IC50” value was determined as 5.42 µg/mL.

As for B7, the “pseudovirus neutralization IC50” value was 0.29 µg/mL.

B8: the “pseudovirus neutralization IC50” value was determined as 0.443 µg/mL.

Consider B9, for which the “pseudovirus neutralization IC50” value was 0.521 µg/mL.

For B10, the “pseudovirus neutralization IC50” value stood at 0.132 µg/mL.

B11: the “pseudovirus neutralization IC50” value amounted to 4.81 µg/mL.

As for B12, the “pseudovirus neutralization IC50” value is 2.08 µg/mL.

The target of the next experiment is SARS-CoV-2 Omicron BA.2 spike pseudovirus. The experiment is described as above. On the procedure:
as §1
Consider B1, for which the “pseudovirus neutralization IC50” value was determined as 0.00111 µg/mL.

With B2, the “pseudovirus neutralization IC50” value is greater than 10 µg/mL.

For the molecule B3, the “pseudovirus neutralization IC50” value was determined as 1.5 µg/mL.

Take B4: the “pseudovirus neutralization IC50” value is 0.00821 µg/mL.

On to B5, for which the “pseudovirus neutralization IC50” value is greater than 10 µg/mL.

For B6, the “pseudovirus neutralization IC50” value was 4.79 µg/mL.

With B7, the “pseudovirus neutralization IC50” value worked out at 0.549 µg/mL.

Consider B8, for which the “pseudovirus neutralization IC50” value is 0.362 µg/mL.

As to B9, the “pseudovirus neutralization IC50” value came out at 0.712 µg/mL.

Turning to B10, the “pseudovirus neutralization IC50” value amounted to 0.13 µg/mL.

Regarding B11, the “pseudovirus neutralization IC50” value is 6.8 µg/mL.

Consider B12, for which the “pseudovirus neutralization IC50” value was found to be 1.42 µg/mL.

The next experiment concerns the target SARS-CoV-2 Omicron BA.2.75 spike pseudovirus. The description is as above. On the procedure: as §1
As for B1, the “pseudovirus neutralization IC50” value amounted to 0.241 µg/mL.

In the case of B2, the “pseudovirus neutralization IC50” value is greater than 10 µg/mL.

Turning to B3, the “pseudovirus neutralization IC50” value was 1.27 µg/mL.

Turning to B4, the “pseudovirus neutralization IC50” value is 0.0121 µg/mL.

For the molecule B5, the “pseudovirus neutralization IC50” value was greater than 10 µg/mL.

Regarding B6, the “pseudovirus neutralization IC50” value was determined as 5.34 µg/mL.

For B7, the “pseudovirus neutralization IC50” value amounted to 0.596 µg/mL.

In the case of B8, the “pseudovirus neutralization IC50” value was 0.414 µg/mL.

Consider B9, for which the “pseudovirus neutralization IC50” value was determined as 0.786 µg/mL.

Turning to B10, the “pseudovirus neutralization IC50” value is 0.134 µg/mL.

With B11, the “pseudovirus neutralization IC50” value was 5.33 µg/mL.

Consider B12, for which the “pseudovirus neutralization IC50” value is 2.78 µg/mL.

The target of another experiment is SARS-CoV-2 Omicron BA.5 spike pseudovirus. The description is as above. On the procedure:
as §1
Take B1: the “pseudovirus neutralization IC50” value is 0.0175 µg/mL.

For the molecule B2, the “pseudovirus neutralization IC50” value was greater than 10 µg/mL.

On to B3, for which the “pseudovirus neutralization IC50” value was 8.09 µg/mL.

For B4, the “pseudovirus neutralization IC50” value is greater than 10 µg/mL.

Regarding B5, the “pseudovirus neutralization IC50” value is greater than 10 µg/mL.

For B6, the “pseudovirus neutralization IC50” value was 5.59 µg/mL.

Regarding B7, the “pseudovirus neutralization IC50” value is greater than 10 µg/mL.

With B8, the “pseudovirus neutralization IC50” value stood at 0.544 µg/mL.

For the molecule B9, the “pseudovirus neutralization IC50” value amounted to 3.06 µg/mL.

In the case of B10, the “pseudovirus neutralization IC50” value is greater than 10 µg/mL.

Consider B11, for which the “pseudovirus neutralization IC50” value worked out at 6.95 µg/mL.

Regarding B12, the “pseudovirus neutralization IC50” value was 1.35 µg/mL.

A further experiment deals with SARS-CoV-2 Omicron BQ.1.1 spike pseudovirus. The description is as above. On the procedure: as §1
As for B1, the “pseudovirus neutralization IC50” value was greater than 10 µg/mL.

In the case of B2, the “pseudovirus neutralization IC50” value was greater than 10 µg/mL.

Consider B3, for which the “pseudovirus neutralization IC50” value is greater than 10 µg/mL.

B4: the “pseudovirus neutralization IC50” value was greater than 10 µg/mL.

Regarding B5, the “pseudovirus neutralization IC50” value was greater than 10 µg/mL.

In the case of B6, the “pseudovirus neutralization IC50” value came out at 6.08 µg/mL.

In the case of B7, the “pseudovirus neutralization IC50” value is greater than 10 µg/mL.

Turning to B8, the “pseudovirus neutralization IC50” value was greater than 10 µg/mL.

Take B9: the “pseudovirus neutralization IC50” value was greater than 10 µg/mL.

Regarding B10, the “pseudovirus neutralization IC50” value was greater than 10 µg/mL.

B11: the “pseudovirus neutralization IC50” value amounted to 9.44 µg/mL.

B12: the “pseudovirus neutralization IC50” value worked out at 1.82 µg/mL.

The target in a further experiment is SARS-CoV-2 Omicron XBB spike pseudovirus. Described as above. On the procedure: as §1
As for B1, the “pseudovirus neutralization IC50” value is greater than 10 µg/mL.

Consider B2, for which the “pseudovirus neutralization IC50” value is greater than 10 µg/mL.

As for B3, the “pseudovirus neutralization IC50” value is 2.01 µg/mL.

Consider B4, for which the “pseudovirus neutralization IC50” value is greater than 10 µg/mL.

Take B5: the “pseudovirus neutralization IC50” value is greater than 10 µg/mL.

Take B6: the “pseudovirus neutralization IC50” value worked out at 5.69 µg/mL.

With B7, the “pseudovirus neutralization IC50” value is greater than 10 µg/mL.

As to B8, the “pseudovirus neutralization IC50” value is greater than 10 µg/mL.

For the molecule B9, the “pseudovirus neutralization IC50” value was greater than 10 µg/mL.

As to B10, the “pseudovirus neutralization IC50” value amounted to 2.98 µg/mL.

On to B11, for which the “pseudovirus neutralization IC50” value turned out to be 9.43 µg/mL.

Turning to B12, the “pseudovirus neutralization IC50” value was 2.18 µg/mL.

The next experiment concerns the target SARS-CoV-2 early D614G spike pseudovirus. Described as above. On the procedure:
as §1
In the case of B1, the “pseudovirus neutralization IC50” value stood at 0.00494 µg/mL.

For the molecule B2, the “pseudovirus neutralization IC50” value was found to be 0.0577 µg/mL.

Regarding B3, the “pseudovirus neutralization IC50” value was greater than 10 µg/mL.

With B4, the “pseudovirus neutralization IC50” value turned out to be 0.0202 µg/mL.

On to B5, for which the “pseudovirus neutralization IC50” value was greater than 10 µg/mL.

On to B6, for which the “pseudovirus neutralization IC50” value came to 1.72 µg/mL.

For the molecule B7, the “pseudovirus neutralization IC50” value is greater than 10 µg/mL.

Take B8: the “pseudovirus neutralization IC50” value came out at 1.28 µg/mL.

As to B9, the “pseudovirus neutralization IC50” value is 0.812 µg/mL.

For the molecule B10, the “pseudovirus neutralization IC50” value was found to be 0.374 µg/mL.

For the molecule B11, the “pseudovirus neutralization IC50” value is 3.83 µg/mL.

With B12, the “pseudovirus neutralization IC50” value amounted to 2.83 µg/mL.
